Experiments:
[1] = Selectivity index, ratio of CC50 for chicken embryo fibroblasts to EC50 for influenza A virus duck/Guangdong/674/2014(H5N6)
[2] = Selectivity index, ratio of CC50 for chicken embryo fibroblasts to EC50 for influenza A virus chicken/china/1220/2012(H5N1)

CCC(CC)O[C@@H]1C=C(C(=O)N[C@@H](C(=O)O)C(C)C)C[C@H](N)[C@H]1NC(C)=O
Ratio CC50/EC50 [1]: > 750 | Ratio CC50/EC50 [2]: > 200

— ChEMBL document CHEMBL4145508 (Eur J Med Chem, 2018)
